The record followed here is PubChem BioAssay AID720488 (Milwaukee Institute for Drug Discovery, 2013).

This is a selection; strong and weak results do not stand in their true shares. Active and inactive are the calls of the source.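 Rule for the calls: active = compound fluorescence over control fluorescence at most 0.8, a quencher, or at least a set upper limit, an enhancer; inactive = ratio between 0.8 and the set upper limit.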

The assay in a line: Cy5 fluorescence quenchers or enhancers, artefact control for HCV NS3 helicase inhibitor project, biochemical, ChemBridge library, Cy5 readout (AID 720488). Particulars: Cy5-dT15 DNA with NS3h, at 100 µM, actives lie on both sides, signal over control mean, under 1 quenches.
Take `CP(=O)(Oc1ccc(Cl)cc1)Oc1ccc(Cl)cc1`: the fluorescence interference ratio was inactive: 0.895.
On to `CP(=O)(Oc1ccccc1)Oc1ccccc1`, for which the fluorescence interference ratio is inactive: 0.901.
Turning to `CP(=O)(Oc1ccccc1F)Oc1ccccc1F`, the fluorescence interference ratio is inactive: 0.914.
`CN(C)CCOC(=O)C(O)(c1ccccc1)c1ccccc1`: the fluorescence interference ratio is active: 1.23.
For `CCc1ccc(OP(C)(=O)O)cc1` the value was inactive: 1.12; for `CP(=O)(Oc1ccc(F)cc1)Oc1ccc(F)cc1`, inactive: 1.03.
